# Residue numbers refer to the chain shown, from its start.
# Amino acid sequences for entries named in this document (tags omitted).
# UniProt O15393, whole entry R316S/F319L: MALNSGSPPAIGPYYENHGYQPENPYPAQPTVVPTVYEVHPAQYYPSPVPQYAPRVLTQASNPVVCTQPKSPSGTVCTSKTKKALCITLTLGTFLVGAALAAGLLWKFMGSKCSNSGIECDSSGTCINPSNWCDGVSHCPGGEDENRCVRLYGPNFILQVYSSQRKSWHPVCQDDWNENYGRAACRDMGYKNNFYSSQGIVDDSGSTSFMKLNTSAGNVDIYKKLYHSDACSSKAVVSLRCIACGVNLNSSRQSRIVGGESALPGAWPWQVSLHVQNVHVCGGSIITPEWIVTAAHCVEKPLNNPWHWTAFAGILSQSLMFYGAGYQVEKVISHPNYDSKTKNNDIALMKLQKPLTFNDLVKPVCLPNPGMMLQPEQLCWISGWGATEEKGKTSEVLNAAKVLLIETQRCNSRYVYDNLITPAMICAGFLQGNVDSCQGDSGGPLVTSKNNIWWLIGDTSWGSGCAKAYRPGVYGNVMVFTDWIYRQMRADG
# UniProt O15393, whole entry K300E/W306R: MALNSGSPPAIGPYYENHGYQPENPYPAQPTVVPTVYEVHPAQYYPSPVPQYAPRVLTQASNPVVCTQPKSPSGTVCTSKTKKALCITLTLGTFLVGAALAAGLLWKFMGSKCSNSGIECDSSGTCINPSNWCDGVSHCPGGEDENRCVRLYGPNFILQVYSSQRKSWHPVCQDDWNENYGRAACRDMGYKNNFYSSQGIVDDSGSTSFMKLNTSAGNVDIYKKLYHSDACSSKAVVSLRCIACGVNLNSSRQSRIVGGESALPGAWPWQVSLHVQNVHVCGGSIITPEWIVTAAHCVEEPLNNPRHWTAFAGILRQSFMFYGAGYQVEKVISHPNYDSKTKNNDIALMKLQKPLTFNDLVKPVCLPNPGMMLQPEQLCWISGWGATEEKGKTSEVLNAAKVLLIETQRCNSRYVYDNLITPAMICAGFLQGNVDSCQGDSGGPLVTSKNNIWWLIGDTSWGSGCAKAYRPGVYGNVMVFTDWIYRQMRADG
# UniProt O15393, whole entry W306A: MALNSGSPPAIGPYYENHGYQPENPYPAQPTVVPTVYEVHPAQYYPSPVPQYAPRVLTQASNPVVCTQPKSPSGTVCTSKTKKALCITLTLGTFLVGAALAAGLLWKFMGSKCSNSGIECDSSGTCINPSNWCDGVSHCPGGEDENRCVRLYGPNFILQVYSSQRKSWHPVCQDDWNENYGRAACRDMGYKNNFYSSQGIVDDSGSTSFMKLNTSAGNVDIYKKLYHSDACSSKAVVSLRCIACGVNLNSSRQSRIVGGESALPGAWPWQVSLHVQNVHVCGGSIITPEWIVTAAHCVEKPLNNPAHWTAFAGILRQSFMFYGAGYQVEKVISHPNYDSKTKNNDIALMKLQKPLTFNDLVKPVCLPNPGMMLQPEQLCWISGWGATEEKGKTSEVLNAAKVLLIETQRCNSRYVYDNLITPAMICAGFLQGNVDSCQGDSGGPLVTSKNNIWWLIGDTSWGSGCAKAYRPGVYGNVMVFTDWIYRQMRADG
# B1: 2020_12: mouse anti-human TMPRSS2 monoclonal antibody, IgG2c κ; VH SEQ ID NO: 25, VL SEQ ID NO: 26 (antibody, V domains shown)
# VH: QVQLQQPGAELAKPGASVKLSCKASGYTFTSYWMHWVKQRPGQGLEWIGLIPPNSGSSNYNEKFKSKATLTVDKSSRTAYMQLSSLTSEDSAVYYCARWDYGSSYGYFDVWGTGTTVTVSS
# VL: DIVLTQSPASLAVSLGQRATISCRASESVSTSGYSYMHWYQQKPGQPPKLLIYLASNLESGVPVRFSGSGSGTDFTLNIHPVEEEDAATYYCQHSRELPPTFGAGTKLELK
# modifications: mouse IgG2c kappa constant regions; 2020_12 VH; 2020_12 VL
# B2: 1864_10: mouse anti-human TMPRSS2 monoclonal antibody, IgG2b κ; VH SEQ ID NO: 17, VL SEQ ID NO: 18 (antibody, V domains shown)
# VH: QVQLQQSGPALVKPGASLKISCEASGYTFTYYSINWVKQRPGQGLEWIGWIFPGSGSTYYNEKFKGKATLTIDKSSSTAYMLLSSLTSEDSAVYFCARSDYGSAYGYFDVWGTGTTVTVSS
# VL: B1 VL with E27K, V64A, E97D, P100L
# modifications: mouse IgG2b kappa constant regions; 1864_10 VH; 1864_10 VL
# B3: 1831_15: mouse anti-human TMPRSS2 monoclonal antibody, IgG2b κ; VH SEQ ID NO: 98, VL SEQ ID NO: 99 (antibody, V domains shown)
# VH: QVQLQQPGAELVKPGASVKLSCKASGYSFTTYWMHWVRQRPGQGLEWIGIIHPNSGTTNYNEKFKSKASLTVDKSSSTAYMQLSSLTSEDSAVYYCARLLWDYFDYWGQGTTLTVSS
# VL: DIVMSQSPSSLAVSAGEKVTMSCKSSQSLLNSRTRKNFLAWYQQKPGQSPKLLIYWASTRESGVPDRFTGSGSGTDFTLTISSVQAEDLAVYYCKQSYNLYTFGGGTKLEIK
# modifications: mouse IgG2b kappa constant regions; 1831_15 VH; 1831_15 VL
# Legend:
# Experiment in all cases: Flow cytometry binding to TMPRSS2 variants in COS7 cells
# [1] = target: TMPRSS2 chimera (human/316 to 321 hamster) (Homo sapiens, UniProt O15393, F319L/R316S); settings: FIG. 7D
# [2] = target: TMPRSS2 chimera (human/292 to 309 cat) (Homo sapiens, UniProt O15393, K300E/W306R); settings: FIG. 7A
# [3] = target: W306A variant of human TMPRSS2 (Homo sapiens, UniProt O15393, W306A); settings: FIG. 7C
Molecule,binding properties to TMPRSS2 chimera (human/316 to 321 hamster) [1],binding properties to TMPRSS2 chimera (human/292 to 309 cat) [2],binding properties to W306A variant of human TMPRSS2 [3]
B1,lost binding properties,–,–
B2,lost binding properties,–,–
B3,–,lost binding properties,lost binding properties

# From patent US20250277059A1, “ANTIBODY USED TO TREAT CORONAVIRUS INFECTION” (priority 2022, published 2025)
